This note sets out measurements from patent US20190359693A1, “Binding molecules directed against influenza hemagglutinin and uses thereof” (published 2019).

Test [1] concerns the target HA of H1N1 A/California/07/2009 (influenza A virus). The experiment in a line: AlphaLISA competition vs CR9114.
Test [2] has the same target. The experiment in a line: AlphaLISA competition vs SD1038.
Test [3] has the same target. Briefly: cell-based or functional assay.

For SD1036 (VHH), the pIC50 in test [1] and in test [2] was < 7 each time. Also, the VNA titer in test [3] is > 1000 nM.
